Results: paper PMC9817140

Biological target: T1, RpoN (sigma-54) (Vibrio parahaemolyticus RIMD2210633) (UniProt Q87LE2)
T1 sequence (looked up): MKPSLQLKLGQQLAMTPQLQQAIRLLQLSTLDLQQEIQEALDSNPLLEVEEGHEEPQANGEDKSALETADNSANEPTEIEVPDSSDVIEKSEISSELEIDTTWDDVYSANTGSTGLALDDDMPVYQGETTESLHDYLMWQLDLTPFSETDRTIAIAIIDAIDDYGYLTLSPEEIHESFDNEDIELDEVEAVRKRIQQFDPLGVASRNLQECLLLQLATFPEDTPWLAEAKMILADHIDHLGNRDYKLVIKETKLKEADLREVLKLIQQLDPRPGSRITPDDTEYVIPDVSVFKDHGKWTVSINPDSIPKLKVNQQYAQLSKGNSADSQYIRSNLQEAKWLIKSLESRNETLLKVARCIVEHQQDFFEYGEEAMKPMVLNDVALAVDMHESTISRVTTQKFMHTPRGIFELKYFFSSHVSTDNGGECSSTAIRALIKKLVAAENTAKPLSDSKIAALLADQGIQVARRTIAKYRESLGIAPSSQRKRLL
Assay: EMSA
Details: EMSA: 20 µl with 10 ng FAM probe, 4 µl EMSA buffer (10 mM NaCl, 0.1 mM DTT, 0.1 mM EDTA, 10 mM Tris pH 7.4), 1 µl poly-dIdC, 25 °C 0.5 h, 6% native PAGE; recombinant protein; residues 1-488; label: FAM; probe letters rebuilt from the primers and the genome

“GAAAAACCTCGCCAAAGACCTGCTAAATATTTATATATCGATTTTTATAATTAGATTTGAAGCTTTAATTATTAACATTAAGATTAATAGAGTTCTTATAGCTGTTATAAAAACTATTGACGGCATAATGAATCATTTTTTTATCAAAGCAATCATGAATTGTTGAACAATTTTAAATATCCAACCAGGTTCAAATTTTTGACACTCAAACTTTCACCCGTCAAAAAACCGATGTTAGTTTGGCCGAGAAAATCTAACCGAAGTATTTTTCATTTAGCAGGAATATATATATTAACCCCATCATTTATATGGAGTCCTTATCGTCGACCTGCAGGCA (double strand) [VPA1044 promoter]”: binds.

Where a protein sequence is shown, tags need not be part of it.
